From patent US8592552B2 (priority 2007, dated 2013) come the findings set out here.

This data set concerns Vero cells. Put plainly: Cellular structure integrity (microtubules, mitotic spindle) by confocal microscopy. As to conditions: tubulin, FIG. 12. It is filed as cell-based, African green monkey (Cercopithecus).

Turning to `CSCC[C@H](NC(=O)[C@@H](NC(=O)[C@H](CCC(N)=O)NC(=O)[C@H](CO)NC(=O)[C@H](C)NC(=O)[C@@H](NC(=O)[C@H](CC(N)=O)NC(=O)[C@H](CCC(N)=O)NC(=O)[C@@H](NC(=O)[C@@H](NC(=O)[C@@H](NC(=O)[C@@H](NC(=O)[C@H](CO)NC(=O)CNC(=O)[C@@H]1CCCN1C(=O)[C@H](CCC(=O)O)NC(=O)[C@H](C)NC(=O)[C@@H]1CCCN1C(=O)[C@H](Cc1c[nH]cn1)NC(=O)[C@H](CCCNC(=N)N)NC(=O)[C@H](CCCNC(=N)N)NC(=O)[C@H](CCCNC(=N)N)NC(=O)[C@H](CCCNC(=N)N)NC(=O)[C@H](CCCNC(=N)N)NC(=O)[C@H](CCCNC(=N)N)NC(=O)[C@H](CCCNC(=N)N)NC(=O)[C@@H](N)CCCNC(=N)N)[C@@H](C)O)C(C)C)[C@@H](C)O)[C@@H](C)O)[C@@H](C)O)[C@@H](C)O)C(=O)N[C@@H](CO)C(=O)O`, the “cells viability and proliferative capacity (mitotic spindle formation)” value is given as “not affected”.
